In one series the test system is DC2.4 cells. Type of series: cell-based, murine. To be noted: LC-MRM.
A further series deals with LET1 cells. Type of series: cell-based, murine. To be noted: LC-MRM.

Where two headings read alike, the source gives them in different places. Some results come without the dose or concentration used.

For the substance HA-41-49 (VTVTHSVNL), the “direct presentation, epitope abundance” value in the series on DC2.4 cells (DC2.4, replicate DC-2) was 107.004; in the series on DC2.4 cells (DC2.4, replicate DC-3), 79.3168; in the series with LET1 cells (LET1, replicate LET-1) it was 42.8556; in the series on LET1 cells (LET1, replicate LET-2), 35.4904; in the series with LET1 cells (LET1, replicate LET-3) it was 53.2776.

(Values after paper PMC6599079 (Nature Communications, 2019).)
